Measured values from several laboratories, pooled; numbers as filed in NIAID ChemDB.

Shared fields: target-level tests; agent: HIV-1; target: Reverse transcriptase; read-out: inhibition

Neighbouring rows are from separate reports. Percent inhibition refers to the dose given; in toxicity tests it is the harm to the cells. An empty or dashed field is not shown.

smiles | dose | mutations | read by | strain | value
Cc1cc(C)nc(N2C(=O)CSC2c2c(Cl)ncnc2Cl)n1 | 100 µg/mL | - | RT activity / ELISA / absorbance | - | 79.97%
COc1cc(O)cc(OC)c1C(=O)c1ccc(O)c(O)c1 | 200 µg/mL | - | RT activity / radiometric | - | 53.45%
COc1ccc2[nH]cc(CCN)c2c1 | 800 µM | - | - | - | 15.6%
C[C@@H]1CC[C@]2(C(=O)O)CC[C@]3(C)C(=CCC4[C@@]5(C)CC[C@H](O)C(C)(C)[C@@H]5CC[C@]43C)C2[C@H]1C | 200 µg/mL | - | RT activity / fluorescence | MC99 | 63.7%
O=c1c2cc(O)c(O)cc2oc2cc(O)cc(O)c12 | 200 µg/mL | - | RT activity / radiometric | - | 44.88%
Cc1cc(Cl)c2c(c1O)C(=O)C=CC2=O | 12.5 µg/mL | - | RT activity | - | 52%
O=C1CCSC(c2c(Cl)cccc2Cl)N1Cc1ccco1 | 10 µg/mL | - | ELISA | - | 54.9%
O=C1CSC(c2c(Cl)ncnc2Cl)N1c1ccccn1 | 100 µg/mL | - | RT activity / ELISA / absorbance | - | 30.72%
CN(C)c1ccc(C2SCC(=O)N2c2ccccn2)cc1 | 10 µg/mL | - | ELISA | - | 44.9%
COc1ccc2[nH]c(=O)oc2c1 | 80 µM | - | - | - | 19.5%
O=C(O)CP(=O)(O)O | 2800 µM | - | ELISA | - | 42%
COc1cc(C)c(Cl)c2c1C(=O)C=CC2=O | 25 µg/mL | - | RT activity | - | 50%
O=C(O)/C=C/c1ccc(O)c(O)c1 | 200 µg/mL | - | RT activity / fluorescence | MC99 | 70.4%
Cc1ccc(CN2C(=O)CSC2c2c(F)cccc2F)o1 | 10 µg/mL | - | ELISA | - | 26.3%
CC(=O)c1ccc(C)cc1NC(C(N)=O)c1c(Cl)cccc1Cl | 100 µg/mL | - | - | - | 86.6%
O=C1CSC(c2c(F)cccc2F)N1Cc1ccco1 | 10 µg/mL | - | ELISA | - | 39.75%
CCOc1cc(C)c(Cl)c2c1C(=O)C=CC2=O | 25 µg/mL | - | RT activity | - | 55%
CCN1c2ncccc2C=Cc2cccnc21 | 1 µM | - | nucleotide incorporation | - | 97%
CCc1c(Sc2ccccn2)n(COCc2ccccc2)c(=O)[nH]c1=O | 50 µM | RT-L100I | - | - | 90%
CC/C=C\C/C=C\C/C=C\CCCCCCCC(=O)OC[C@@H](CO[C@H]1O[C@H](CS(=O)(=O)O)[C@@H](O)[C@H](O)[C@H]1O)OC(=O)CCCCCCCCCCCCCCC | 10 µM | - | nucleotide incorporation / radiometric | - | 100%
O=C(O)/C=C/c1ccc(O)cc1 | 200 µg/mL | - | RT activity / fluorescence | MC99 | 3.7%
COc1cc(OC)c2c(=O)c3c(O)c4c(c(OC)c3oc2c1O)OC(C)(C)C=C4 | 200 µg/mL | - | RT activity / radiometric | - | 19.41%
Cc1ccc(CN2C(=O)CSC2c2c(Cl)cccc2Cl)o1 | 10 µg/mL | - | ELISA | - | 49.8%
O=c1c(OC2OC(CO)C(O)C(O)C2O)c(-c2ccc(O)c(O)c2)oc2cc(O)cc(O)c12 | 200 µg/mL | - | RT activity / fluorescence | MC99 | 44.2%
Cc1ccc(N2C(=O)CSC2c2c(Cl)ncnc2Cl)nc1 | 100 µg/mL | - | RT activity / ELISA / absorbance | - | 31.44%
Cc1cc(O)c2c(c1Cl)C(=O)C=CC2=O | 50 µg/mL | - | RT activity | - | 56%
CC(C)=CCc1c(O)cc2oc3ccc(O)cc3c(=O)c2c1O | 200 µg/mL | - | RT activity / radiometric | - | 86.34%
COc1cc(/C=C/C(=O)CC(=O)/C=C/c2ccc(O)c(OC)c2)ccc1O | 100 µM | - | ELISA | - | 29%
Cc1nc(N2C(=O)CSC2c2c(F)cccc2F)ccc1Br | 10 µg/mL | - | ELISA | - | 34%
O=C1CSC(c2c(Cl)ncnc2Cl)N1n1cnnc1 | 10 µg/mL | - | RT activity / ELISA / absorbance | - | 37.57%
Cc1cn([C@H]2CC[C@@H](COP(=O)(O)OP(=O)(O)OP(=O)(O)O)O2)c(=O)[nH]c1=O | 100 µM | - | ELISA | - | 100%
Cc1cccc(N2C(=O)CSC2c2cccnc2)n1 | 10 µg/mL | - | ELISA | - | 24.04%

Again, the opening 3 rows:

smiles	dose	mutations	read by	strain	value
Cc1cc(C)nc(N2C(=O)CSC2c2c(Cl)ncnc2Cl)n1	100 µg/mL	-	RT activity / ELISA / absorbance	-	79.97%
COc1cc(O)cc(OC)c1C(=O)c1ccc(O)c(O)c1	200 µg/mL	-	RT activity / radiometric	-	53.45%
COc1ccc2[nH]cc(CCN)c2c1	800 µM	-	-	-	15.6%